Residue numbers refer to the chain shown, from its start.
Biological target: Hemagglutinin of influenza A/Wisconsin/67/05 (H3N2), on inactivated whole virions (Influenza A virus A/Wisconsin/67/2005 …)
Test: ELISA, B cell culture supernatant on inactivated whole virions

B1: TCN-531 (5091_H13) (antibody, V domains shown)
VH: EVQLVESGGDLVQPGRSLKLSCTGSGFTFGDYGVTWVRQAPGKGLEWVGFIRTRPWGGTADTAASVKGRFTISRDDSKSLAYLQMNSLKTEDTAVYYCCRDAPPNVEVASMTNWYFDLWGRGTLVTVSS
VL: DIQLTQSPSSLSASVGDRVTITCRASQGILNCLAWYQQKPGKVPNLLMYAASTLQSGVPSRFSGSGFGTDFTLTISSLQPEDVATYYCQTYGGVSTFGGGTKVEIR
**Q.** B1 was tested. Which OD450 did it give?
**A.** 3.45 OD450

B2: TCN-540 (5060_F05) (antibody, V domains shown)
VH: QVQLVQSGGGVVQPGRSLRLSCAASGFTFSSYAMHWVRQAPGKGLEWVAIISYDGNDQYYTDSVKGRFTISRDSSKVYLQMHRLRPEDTAVYYCAKEFETSGYFHGSFDYWGQGILVTVSS
VL: QSALTQPASVSGSPGQSITISCTGTSSDVGGYNYVSWYQQHPGKAPKLLIYEVTNWPSGVSNRFSGSKSGNTASLTISGLQAEDEADYYCSSYAGSSTWVFGGGTRVTVL
**Q.** With B2 as the binder, how does the OD450 read?
**A.** 3.65 OD450

B3: TCN-532 (5262_H18) (antibody, V domains shown)
VH: QVQLQESGPGLVKPSETLSLTCTVSGGSVSSETYYWSWIRQPPGKGLEWIGYIYYIGNTDYRPSLKSRVTISLDTSKNQFSLKLSSVTAADTAVYYCARGAYYDSSGYPAFYIWGQGTMVTVSS
VL: QSVLTQPPSVSGAPGQRVTISCTGSSSNIGSDYDVHWYKQLPGTAPKLLIFGNSNRPSGVPDRFSGSKSGTSASLAITGLQAEDEADYYCQSYDSSLSGFHVFGSGTKVTVL
**Q.** With B3 as the binder, how does the OD450 read?
**A.** 3.67 OD450

B4: TCN-563 (5237_B21) (antibody, V domains shown)
VH: QVQLAQSGAEVKRPGSSVKVSCTASGGIFRKNAISWVRQAPGQGLEWMGGIIAVFNTANYAQKFQGRVKITADESGNTAYMELSSLRSDDTAVYYCASHPKYFYGSGSYPDFWGQGTLVTVSS
VL: QSALTQPRSVSGSPGQSVTISCTGSSSDVGASNSVSWYQQHPGKAPKLVIYDVTERPSGVPHRFSGSKSGNTASLTVSGLQPEDEADYFCCAYGGKYLVVFGGGTKVTVL
**Q.** B4 was tested. Which OD450 did it give?
**A.** 0.07 OD450

B5: TCN-555 (5246_L16) (antibody, V domains shown)
VH: B4 VH with A5V, G66N, R87T
VL: B4 VL with V18I, S25G, V29I, Y51F, E83D
**Q.** Which OD450 does the source give for B5 here?
**A.** 0.06 OD450

B6: TCN-521 (3280_D18) (antibody, V domains shown)
VH: EVQLVQSGGGLVQPGGSLRLACVVSGFTVTSNYITWVRQAPGKGLEWVSVIYSHGRAYYSASVNGRFTISRHTSKNTVYLEMNSLRPEDTAVYYCAGGGLVGGYDEYFFDYWGQGTLATVSS
VL: ETVLTQSPGTLSLTPGERATLSCRVGQSVSGSHLAWYQQKPGQAPRLLIYGASSRATGIPDRFGGSVSGTDFTLTISRLEPEDSAVYYCQQYGDSRYTFGQGTKLEIK
**Q.** Which OD450 does the source give for B6 here?
**A.** 1.1 OD450

B7: TCN-523 (5248_A17) (antibody, V domains shown)
VH: QVQLVQSGAEVKKPGSSVKVSCKASGGSFSNYAFSWVRQAPGQGLEWMGGTIPLLGTTNYAQKFQGRVTISADQFTSTAYMELGSLRSEDTAVYYCTRRKMTTAFDSWGQGTLVTVSS
VL: QPVLTQPPSASASLGASVTLTCTLSSAYSNYKVDWYQQRPGKGPRFVMRVGTGGIVGSKGDGIPDRFSVLGSGLNRYLTIKNIQEEDESDYHCGADHGSGSNFVSPYVFGGGTKLTVL
**Q.** For B7, which OD450 is on record?
**A.** 0.08 OD450

B8: TCN-527 (5086_C06) (antibody, V domains shown)
VH: QVQLQESGPGLVKPSETLSLNCAVSGGSISNYYWSWIRQPPGKGLEWIGYISYNGRPKYNPSLTSRVTISVDTSKDQFSLELRSVTAADTALYYCARETRFGELLSPYDAFEIWGQGTMVTVSS
VL: DIQMTQSPSSLSASVGDRVTMTCRASQNIRSYLNWYQQRPGTAPKLLIYAASTLHSGVPSRFSGGGSGTDFTLTINNLQPEDFASYYCQQSYDNPQTFGQGTKVEIK
**Q.** B8 was tested. Which OD450 did it give?
**A.** 0.07 OD450

B9: TCN-526 (5084_C17) (antibody, V domains shown)
VH: EVLMVESGGGLVQPGGSVRLSCVASGFSFSSHWMTWVRQAPGKGLEWVANIEDDGGDKYYVDSVKGRFIISRDNAKNSVYLQMNSLRAEDTAVYFCARGSGSSDRSDYDPHYYYYLDVWGKGATVTVSS
VL: DIQLTQSPSSLSASVGDRVTITCRASQSISRYLNWYQQKPGKAPKLLLFAASTLLDGVPSRFSGSGSGTDFTLTISSLQPEDFATYYCQRNHSPSWTFGQGTRVEIK
**Q.** How did the OD450 turn out when B9 was run?
**A.** 3.65 OD450

B10: TCN-534 (5249_B02) (antibody, V domains shown)
VH: QVQLVQSGAEVKKPGSSVKVSCRESGGTFNGYTITWVRQAPGQGLEWMGGIIPMMGTVNYAQKLQGRVTITTDYFTKTAYMDLNNLRSEDTAMYYCVKIRYTGQQLLWGQGTLVTVSS
VL: DIQMTQSPSTLSASIGDRVTITCRASQSIASWLAWYQQKPGKAPKLLIYEAVNLESGVPSRFSGSGSGTDFTLTISSLQPDDFATYFCQHYGTISQTFGGGTKVEIK
**Q.** With B10 as the binder, how does the OD450 read?
**A.** 0.07 OD450

B11: TCN-533 (5256_A17) (antibody, V domains shown)
VH: QVQLVQSGADVKKPGSSVTVSCKASGGSFSNYGINWVRQAPGQGLEWMGGIIPLINAPNYAPKFQGRVTITADMFSNIVSLQLTSLRTDDTAVYYCARRKMTTAIDYWGQGTLVTVSS
VL: QPVLSQPPSASASLGASVTLTCTLSSGFDNYQVAWYQQRPGKGPRFVMRVGNGGNVASKGDGIPDRFSVSGSGLNRYLTIKNIQEDDESDYYCGADHGSGNNFVSPYVFGGGTKLTVL
**Q.** Which OD450 does the source give for B11 here?
**A.** 0.1 OD450

B12: TCN-530 (5248_H10a) (antibody, V domains shown)
VH: QVQLVQSGAEVRKPGSSVKVSCKASGGPFMSYAIGWVRQAPGQGLEWMGGINPVFGRPHYAQKFQGRVTIATDDSTKTSYMELSSLTSEDTGMYYCASRYSRSSPGTFESWGQGTLVTVSS
VL: EIVMTQFPATLSVSPGERVTLSCRASQSVSNNLAWYQQKPGQPPRLLIYDASTRATGVPAKFSGTGSGTEFTLSISSLQSEDFAVYYCQQYHNWPPSYSFGLGTKLEIK
**Q.** How did the OD450 turn out when B12 was run?
**A.** 0.06 OD450

B13: TCN-528 (5087_P17) (antibody, V domains shown)
VH: QVQLVQSGSEVKKPGASVKVSCKASGYTFTNYDINWIRQAPGQGLEWMGWINPNSGTTGSAQRFQGRVTITVDTSITTVYMELSSLRSDDTAIYYCARGRELLRLQHFLTDSQSERRDCFDPWGQGTLVTVSS
VL: DIQMTQSPSSLSASVGDRVTITCRANQDIGIYLNWYQQNPGKVPKLLLHGASSLQGGVPSRFSASGSGTDFTLTIHSLQPEDLATYYCQQSRRLPYTFGQGTRVELK
**Q.** Which OD450 does the source give for B13 here?
**A.** 0.24 OD450

B14: TCN-539 (5056_A08) (antibody, V domains shown)
VH: QVQLVESGGGVVQPGRSLRLSCAASEITFITYAMHWVRQAPGKGLEWVALISDDGSNKFYADSVKGRFTISRDNSKNTLYLQMNSLRAEDTAAYYCAREGVYFDSGTYRGYFDYWGQETLVTVSS
VL: EIVLTQSPATLSLSPGERATLSCRASQSVSSYLAWYQQKPGQAPRLLIYDASNRATGIPARFSGSGSGTDFTLTISSLEPEDFAVYYCQQRSHWPPITFGQGTRLEIK
**Q.** How did the OD450 turn out when B14 was run?
**A.** 2.85 OD450

B15: TCN-536 (5095_N01) (antibody, V domains shown)
VH: QVQLQQWGAGLLKPSETLSLTCAVYGGSFSVSGYYWSWIRQPPGRGLEWIGEISHGGSTNYNPSLKSRVTISVDTTKNQFSLRLSSVTAADTAVYYCARGTDPDTEVYCRVGNCAAFDYWGQGSLVTVSS
VL: EIILAQSPGTLSLSPGERATLSCRASQFVSTRSLAWYQQRPGQAPRLLIYGASSRATGIPDRFSGSGSGTDFTLTISRLEPEDFAVYYCQHYGYSPRYAFGQGSKVEIK
**Q.** With B15 as the binder, how does the OD450 read?
**A.** 3.66 OD450

B16: TCN-535 (5246_P19) (antibody, V domains shown)
VH: QVQLVQSGSEVKKPGTSVKVSCTASGSVFTNYGISWVRQAPGQGLEWMGGIIPLFGAAKYAQKFQGRVTITADESTKTVYMELSRLTSKDTAIYFCAKAPRVYEYYFDQWGQGTPVTVSS
VL: EIVLTQSPGTLSLSPGERATLSCRASQSVSSSQLAWYQQKPGQAPRLIIYGASTRATGIPDRFSGSGSGTDFTLTIGRLEPEDFAVFFCQQYSTSPPTFGQGTKVDFK
**Q.** Which OD450 does the source give for B16 here?
**A.** 0.08 OD450

Reference: patent publication US20120207760A1, “Compositions and Methods for the Therapy and Diagnosis of Influenza” (THERACLONE SCIENCES, published 2012)
